Square brackets hold non-standard residues; d marks the D form. Peptide text beside a SMILES is read from it. Tyr(3-NO2) = N[C@@H](Cc1ccc(O)c([N+](=O)[O-])c1)C(=O)O; 2Abz = Nc1ccccc1C(=O)O
Assay: Internal fluorescence quenching and inner filter effect of substrate
Assay type: physicochemical
Settings: excitation at 312 nm and emission at 415 nm

With `CC(C)C[C@H](NC(=O)[C@H](CCCNC(=N)N)NC(=O)[C@H](CO)NC(=O)[C@H](CO)NC(=O)[C@H](C)NC(=O)[C@H](CC(N)=O)NC(=O)[C@@H](NC(=O)[C@@H](NC(=O)c1ccccc1N)C(C)C)C(C)C)C(=O)N[C@@H](Cc1ccc(O)c([N+](=O)[O-])c1)C(=O)N[C@@H](CCCNC(=N)N)C(=O)O` [Substrate 1] (H-[2Abz]VVNASSRL[Tyr(3-NO2)]R-OH) the “ratio F0/F∞ (internal fluorescence quenching)” value was “≈ 4%”.

Source: patent US6194143A, “Substrates for human cytomegalovirus protease” (Boehringer Ingelheim (Canada) Ltd., priority 1998, dated 2001)
